{
  "source": "paper PMC10870819",
  "about": "(2023)",
  "target": "SARS-CoV-2 PT RBD (residues 319-541) (SARS-CoV-2, UniProt P0DTC2 319-541)",
  "assay": "SPR",
  "data": [
    {"binder": "rabbit ACE2 Q34H (protein) QSTIEELAKTFLEKFNHEAEDLSYQSALASWDYNTNITEENVQKMNDAEAKWSAFYEEQSKLAKTYPSQEVQNLTVKRQLQALQQSGSSALSADKSKQLNTILSTMSTIYSTGKVCNQSNPQECFLLEPGLDEIMAKSTDYNERLWAWEGWRSVVGKQLRPLYEEYVVLKNEMARANNYEDYGDYWRADYEAEGADGYDYSRSQLIDDVERTFSEIKPLYEQLHAFVRTKLMDAYPSRISPTGCLPAHLLGDMWGRFWTNLYSLTVPFGQKPNIDVTDTMVNQGWDAERIFKEAEKFFVSVGLPSMTQGFWENSMLTEPGDGRKVVCHPTAWDLGKGDFRIKMCTKVTMDNFLTAHHEMGHIQYDMAYATQPFLLRNGANEGFHEAVGEIMSLSAATPEHLKSIGLLPYDFHEDNETEINFLLKQALTIVGTLPFTYMLEKWRWMVFKGEIPKEQWMQKWWEMKREIVGVVEPMPHDETYCDPAALFHVANDYSFIRYYTRTIYQFQFQEALCQAAQHEGPLHKCDISNSTEAGQKLLNMLRLGRSEPWTLALENVVGAKNMDVRPLLNYFEPLFTWLKEQNRNSFVGWSTEWTPYAD", "values": [
      {"measurement": "Kd", "value": 113, "unit": "nM"}
    ]}
  ]
}
